Results taken from PMC3993263.

Molecular target: T1, RaaS (UniProt O86312)
T1 sequence (looked up, limits assumed): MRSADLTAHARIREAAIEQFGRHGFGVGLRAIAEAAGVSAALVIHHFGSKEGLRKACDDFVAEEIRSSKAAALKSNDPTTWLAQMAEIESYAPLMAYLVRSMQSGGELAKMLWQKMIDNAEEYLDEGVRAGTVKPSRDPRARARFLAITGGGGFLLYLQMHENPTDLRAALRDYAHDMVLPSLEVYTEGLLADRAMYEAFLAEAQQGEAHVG
Assay: EMSA
Details: 20 nM DNA, 170 nM RaaS (Fig 4C), recombinant protein, protein details: 6xHis (pET15-Tev), label: 32P (Fig 4C)

Sequence: GGGATGAACGTACGTTTAATATCCTGAACATGCGTTCAG / GGGCTGAACGCATGTTCAGGATATTAAACGTACGTTCAT [Pr14 (WT)]
- binding result: binds

For at least one entry, the source does not settle the construct or the ends of the probe. At least one verdict was read from the data and is not stated in words by the source. Where a protein sequence is shown, tags need not be part of it.
